Pooled drug test results. Numbers come from NIAID ChemDB, via PubChem.

Shared fields: tests on isolated targets

Fold resistance has wild type as its base. ICn is the concentration giving n% inhibition. Rows are shuffled and stem from different studies. a–b is a range or a potency band. Percent inhibition refers to the dose given; in toxicity tests it is the harm to the cells. Blank or dashed fields: not listed here.

structure | endpoint | method | target | mutations | species | tested at | strain or isolate | value
Nc1nc(N)c2c(n1)CCc1ccc(Cl)cc1-2 | IC50 |  | Dihydrofolate reductase |  | Cryptosporidium parvum |  | TYPE 1 | >10 µM
O=C(Nc1ccc([N+](=O)[O-])cc1)c1cc(O)c2ccccc2c1O | IC50 |  | HCMV DNA polymerase |  | Human cytomegalovirus |  |  | 7.35 µM
CSc1ccc(-c2cncc(N3CCN(c4ccc(C)cc4)CC3)n2)cc1 | IC50 |  | UL97 kinase |  | Cytomegalovirus |  |  | <10 µM
O=C(O)c1cc2nc(-c3ccc(OCc4ccccc4)cc3)c(C3CCCCC3)c(=O)n2[nH]1 | IC50 |  | RNA-dependent RNA polymerase |  | Hepatitis C virus |  |  | 1–10 µM
COCC(C)(C)C(=O)c1cn2ccn(Cc3ccc(F)cc3)c(=O)c2c(O)c1=O | IC50 | ELISA | Integrase |  | HIV-1 |  |  | <0.01 µM
COc1ccc(OC)c(NCc2ccc3nc(N)nc(N)c3c2Cl)c1 | IC50 |  | Dihydrofolate reductase |  | Cryptosporidium parvum |  | TYPE 2 | 0.0065 µM
CC(C)(C)c1ccc(CNC(=O)c2cn3c(c(O)c2=O)C(=O)N(Cc2cccc(Cl)c2)CC3)cc1 | IC50 | ELISA | Integrase |  | HIV-1 |  |  | 0.01–0.1 µM
COc1ccc2cc(O)c(C(=O)N[C@@H](C)c3ccc([N+](=O)[O-])cc3)cc2c1 | IC50 |  | HCMV DNA polymerase |  | Human cytomegalovirus |  |  | >100 µM
O=C(NCc1ccco1)c1cn2c(c(O)c1=O)C(=O)N(Cc1ccc(F)cc1)CC2 | IC50 | ELISA | Integrase |  | HIV-1 |  |  | 0.01–0.1 µM
CSc1ccc(-c2cncc(N3CCN(c4ccc(C(F)(F)F)cc4)CC3)n2)cc1 | inhibition |  | UL97 kinase |  | Cytomegalovirus | 1 µM |  | <50%
O=c1[nH]cnc2c1ncn2[C@@H]1O[C@H](CO)[C@@H](O)[C@H]1O | inhibition |  | DHPS |  | Pneumocystis carinii | 10 µM |  | 0%
O=C(c1ccc([N+](=O)[O-])o1)N1CCN(c2nc3c(F)cc(F)cc3s2)CC1 | IC50 |  | Thioredoxin reductase |  | Plasmodium berghei |  |  | <4 µM
COc1ccc(/C(C)=C\c2coc3nc(N)nc(N)c23)cc1OC | IC50 |  | Dihydrofolate reductase |  | Toxoplasma gondii |  |  | 27 µM
Nc1nc(N)c2c(I)cccc2n1 | IC50 |  | DHFR |  | Pneumocystis carinii |  |  | 0.52 µM
O=C(NCc1cccc(Cl)c1)c1cc2ccccc2cc1O | IC50 |  | HCMV DNA polymerase |  | Human cytomegalovirus |  |  | >100 µM
CSc1ccc(-c2cncc(N3CCN(c4ccccc4F)CC3)n2)cc1 | inhibition |  | UL97 kinase |  | Cytomegalovirus | 1 µM |  | <50%
N#CC[C@H](O)[C@H](O)[C@@H]1OC(C(=O)O)=C[C@H](O)[C@H]1NC(=O)O | Ki |  | Neuraminidase |  | Influenza A virus |  |  | 3 µM
O=C1c2c(O)c(=O)ccn2CCN1Cc1ccccc1 | IC50 | ELISA | Integrase |  | HIV-1 |  |  | 0.1–1 µM
C[C@H](NC(=O)OCc1ccccc1)C(=O)Nc1csc2c(=O)oc([C@H](C)NC(=O)OCc3ccccc3)nc12 | IC50 | HPLC | CMV protease |  | Cytomegalovirus |  |  | >10 µM
CC(Cc1coc2nc(N)nc(N)c12)c1cc(Cl)ccc1Cl | IC50 |  | Dihydrofolate reductase |  | Toxoplasma gondii |  |  | 15 µM
C[C@H](NC(=O)NCc1ccccc1)c1nc2ccsc2c(=O)o1 | IC50 | HPLC | CMV protease |  | Cytomegalovirus |  |  | >10 µM
O=C(O)c1cnn2c(C3CCCCC3)c(C3CC3c3ccccc3)cnc12 | IC50 |  | RNA-dependent RNA polymerase |  | Hepatitis C virus |  |  | >10 µM
CCCCC/C=C\C/C=C/CC/C=C/[C@H]1C[C@H]([C@](O)(CC(=O)O[C@@H](C(=O)O)[C@H](CC(=O)O)C(=O)O)C(=O)O)C(=O)O1 | IC50 |  | Geranylgeranyltransferase I |  | Cryptococcus neoformans |  |  | 3 µM
O=C1c2c(O)c(=O)ccn2C(Cc2ccccc2)CN1Cc1ccc(Cl)c(Cl)c1 | IC50 | ELISA | Integrase |  | HIV-1 |  |  | 0.01–0.1 µM
O=C1NC(=O)/C(=C/c2cnn3c(C4CCCCC4)c(-c4ccc(OCc5ccccc5)cc4)cnc23)S1 | IC50 |  | RNA-dependent RNA polymerase |  | Hepatitis C virus |  |  | >10 µM
COCC(=O)Nc1cn2ccn(Cc3cccc(Cl)c3)c(=O)c2c(O)c1=O | IC50 | ELISA | Integrase |  | HIV-1 |  |  | <0.01 µM
O=C(O)c1ccc(-c2ccc(Cl)cc2)c(COc2ccc(-c3cnc4c(-c5nn[nH]n5)cnn4c3C3CCCCC3)cc2)c1 | IC50 |  | RNA-dependent RNA polymerase |  | Hepatitis C virus |  |  | <1 µM
COc1ccc2cc(O)c(C(=O)Nc3ccc([N+](=O)[O-])cc3)cc2c1 | IC50 |  | HCMV DNA polymerase |  | Human cytomegalovirus |  |  | 93.7 µM
CC(C)C(=O)N[C@H]1C([C@H](C)[C@@H](O)CO)OC(C(=O)O)=C[C@@H]1N=[N+]=[N-] | IC50 |  | Neuraminidase |  | Parainfluenza virus |  | TYPE 3 | 20 µM
O=C(Nc1cccc(F)c1)c1cc2ccccc2cc1O | IC50 |  | HCMV DNA polymerase |  | Human cytomegalovirus |  |  | >100 µM
C[C@H](CO)[C@@H](OC(=O)N(CCCN)CCCCN)[C@@H]1OC(C(=O)O)=C[C@H](N=C(N)N)[C@H]1NC(=O)O | IC50 |  | Sialidase |  | Influenza B virus |  | Victoria | 0.62 µM
O=c1c(-c2ccccc2O)cn2ccn(Cc3cccc(Cl)c3)c(=O)c2c1O | IC50 | ELISA | Integrase |  | HIV-1 |  |  | <0.01 µM
Nc1nc(N)c2c(Br)cccc2n1 | IC50 |  | DHFR |  | Pneumocystis carinii |  |  | 0.28 µM
CN1C(=O)c2ccccc2C(CC(=O)c2ccc(F)cc2)C1=O | IC50 |  | Protease |  | Rhinovirus |  | Serotype 14 | 41.1 µM
O=C(N[C@@H](Cc1cc2ccccc2[nH]1)C(=O)O)c1cc2nc(OCc3ccccc3)c(CCC3CCCCC3)c(=O)n2[nH]1 | IC50 |  | RNA-dependent RNA polymerase |  | Hepatitis C virus |  |  | 1–10 µM
COc1cc(CN2CCc3nc(N)nc(N)c3C2)cc(OC)c1OC | IC50 |  | Dihydrofolate reductase |  | Cryptosporidium parvum |  | TYPE 2 | >10 µM
C[C@H](CO)[C@@H](OC(=O)NCCO[C@@H]1O[C@@H](CO)[C@H](O)[C@@H](O)[C@H]1O)[C@@H]1OC(C(=O)O)=C[C@H](N=C(N)N)[C@H]1NC(=O)O | IC50 |  | Sialidase |  | Influenza A virus |  | H3N2 AICHI | 0.013 µM
CCOC(=O)CCCN1C(=O)c2ccccc2C(C(=O)c2ccccc2)C1=O | IC50 |  | Protease |  | Rhinovirus |  | Serotype 14 | 55.4 µM
Nc1nc(N)c2cc(I)ccc2n1 | IC50 |  | DHFR |  | Toxoplasma gondii |  |  | 1.6 µM
CSc1ccc(-c2cncc(N3CCN(c4ccc(F)cc4)CC3)n2)cc1 | IC50 |  | UL97 kinase |  | Cytomegalovirus |  |  | <10 µM
CC(C)N(C(=O)O[C@@H]([C@@H]1OC(C(=O)O)=C[C@H](N)[C@H]1NC(=O)O)[C@H](C)CO)C(C)C | IC50 |  | Sialidase |  | Influenza A virus |  | H3N2 AICHI | 48 µM
O=C(c1cc2ccccc2cc1O)N1CCN(c2ccc(F)cc2)CC1 | IC50 |  | HCMV DNA polymerase |  | Human cytomegalovirus |  |  | >100 µM
CC(Cc1coc2nc(N)nc(N)c12)c1ccc(Cl)c(Cl)c1 | IC50 |  | Dihydrofolate reductase |  | Toxoplasma gondii |  |  | 5 µM
Clc1cc(CN2CCCNCCNCCCNCC2)cc(Cl)n1 | fold resistance |  | CXCR4 | CXCR4-D193N |  |  |  | 0.81
C/C(=C/c1coc2nc(N)nc(N)c12)c1cc(Cl)ccc1Cl | IC50 |  | Dihydrofolate reductase |  | Toxoplasma gondii |  |  | 14 µM
COc1ccccc1-c1cc(-c2cccc(Cl)c2)nc2cc(C(=O)O)nn12 | IC50 |  | RNA-dependent RNA polymerase |  | Hepatitis C virus |  |  | >10 µM
Nc1nc(N)c2c(n1)Cc1c-2ccc(Cl)c1Cl | IC50 |  | Dihydrofolate reductase |  | Cryptosporidium parvum |  | TYPE 1 | >10 µM
C/C(=C/c1coc2nc(N)nc(N)c12)c1ccc(-c2ccccc2)cc1 | IC50 |  | Dihydrofolate reductase |  | Toxoplasma gondii |  |  | 0.3 µM
CSCCCN1C(=O)Cc2ccccc2C1=O | IC50 |  | Protease |  | Rhinovirus |  | Serotype 14 | 98.3 µM
FC(F)(F)c1ccc(N2CCN(c3cncc(-c4ccoc4)n3)CC2)cc1 | inhibition |  | UL97 kinase |  | Cytomegalovirus | 10 µM |  | >15%
C[C@H](CO)[C@@H](OC(=O)N1CCNCC1)[C@@H]1OC(C(=O)O)=C[C@H](N=C(N)N)[C@H]1NC(=O)O | IC50 |  | Sialidase |  | Influenza B virus |  | Victoria | 0.033 µM
CCCCCCCCCCCCC/C=C/[C@@H](O)[C@H](CO[C@@H]1O[C@H](CO)[C@H](O)[C@H](OS(=O)(=O)O)[C@H]1O)NC(=O)CCCCCCCCCCCCCCCCCCCCCCC | inhibition |  | Sialidase |  | Influenza A virus | 200 µM | H3N2 A/AICHI/2/2/68 | 58.6%
CC(O)c1cn(Cc2cccc(Cl)c2)c(=O)c2c(O)c(=O)ccn12 | IC50 | ELISA | Integrase |  | HIV-1 |  |  | 0.01–0.1 µM
CCCC(=O)C1C(=O)N(CC(=O)N2CCCC2C(=O)O)C(=O)c2ccccc21 | IC50 |  | Protease |  | Rhinovirus |  | Serotype 2 | >100 µM
CC(=O)c1ccc(-c2cncc(N3CCN(c4cccc(C)c4C)CC3)n2)s1 | IC50 |  | UL97 kinase |  | Cytomegalovirus |  |  | <100 µM
COCc1ccccc1-c1ccc(-c2nc3cc(C(=O)O)[nH]n3c(=O)c2C2CCCCC2)cc1 | IC50 |  | RNA-dependent RNA polymerase |  | Hepatitis C virus |  |  | 1–10 µM
c1ccc(N2CCN(c3cncc(-c4ccsc4)n3)CC2)nc1 | IC50 |  | UL97 kinase |  | Cytomegalovirus |  |  | <10 µM
CCOc1cccc2nc(N)nc(N)c12 | IC50 |  | DHFR |  | Pneumocystis carinii |  |  | 4.7 µM
COc1ccc(N2CCN(c3cncc(-c4csc5ccccc45)n3)CC2)cc1OC | inhibition |  | UL97 kinase |  | Cytomegalovirus | 1 µM |  | <50%
COc1ccc2nc(N)nc(N)c2c1 | IC50 |  | DHFR |  | Pneumocystis carinii |  |  | 58 µM
COc1cccc(N2CCN(c3cncc(-c4ccc(C(N)=O)cc4)n3)CC2)c1 | IC50 |  | UL97 kinase |  | Cytomegalovirus |  |  | <10 µM
O=C(CCn1ncc2c(=O)oc3ccccc3c21)Nc1ccccc1 | IC50 | absorbance | Inosine monophosphate dehydrogenase |  | Cryptosporidium parvum |  |  | 5 µM

Again, the opening 7 rows:

structure | endpoint | method | target | mutations | species | tested at | strain or isolate | value
Nc1nc(N)c2c(n1)CCc1ccc(Cl)cc1-2 | IC50 |  | Dihydrofolate reductase |  | Cryptosporidium parvum |  | TYPE 1 | >10 µM
O=C(Nc1ccc([N+](=O)[O-])cc1)c1cc(O)c2ccccc2c1O | IC50 |  | HCMV DNA polymerase |  | Human cytomegalovirus |  |  | 7.35 µM
CSc1ccc(-c2cncc(N3CCN(c4ccc(C)cc4)CC3)n2)cc1 | IC50 |  | UL97 kinase |  | Cytomegalovirus |  |  | <10 µM
O=C(O)c1cc2nc(-c3ccc(OCc4ccccc4)cc3)c(C3CCCCC3)c(=O)n2[nH]1 | IC50 |  | RNA-dependent RNA polymerase |  | Hepatitis C virus |  |  | 1–10 µM
COCC(C)(C)C(=O)c1cn2ccn(Cc3ccc(F)cc3)c(=O)c2c(O)c1=O | IC50 | ELISA | Integrase |  | HIV-1 |  |  | <0.01 µM
COc1ccc(OC)c(NCc2ccc3nc(N)nc(N)c3c2Cl)c1 | IC50 |  | Dihydrofolate reductase |  | Cryptosporidium parvum |  | TYPE 2 | 0.0065 µM
CC(C)(C)c1ccc(CNC(=O)c2cn3c(c(O)c2=O)C(=O)N(Cc2cccc(Cl)c2)CC3)cc1 | IC50 | ELISA | Integrase |  | HIV-1 |  |  | 0.01–0.1 µM